Source: PubChem BioAssay AID504761 (Drosophila RNAi Screening Center, 2011)
Purpose: 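Insect host genes that dengue virus relies on to spread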 (primary screen). System: D.Mel-2 cells from Drosophila. Knock-down reagent: long dsRNA against Drosophila genes. Conditions: infection with dengue virus type 2; dose and infection time not stated. Detection: 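Per well on two replicate plates, imaging gave the percent of cells positive for viral envelope protein, ranked by infection, and a nuclear count of cells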. Direction: infection score: higher = more virus-infected cells; cell count: higher = more cells in the well. Rule for the call: 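Very low infection ranking in both replicate wells (chance probability at most 0.065), then a retest showing infection dropped 1.5-fold or more at p below 0.05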. Meaning of the calls: active = confirmed: knock-down lowers infection; inactive = not picked or not confirmed.
The screen tested about 22,000 reagents; below is a random part of those that have a named target and a result. Over the whole deposit, 116 (0.52%) got an active call. 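Calls depend on retest data that are not deposited; infection was ranked per plate without normalising between plates; the unit of the infection score is not given.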 Raw values vary from plate to plate and are shown uncorrected. Entries without a mark were called inactive. Reagents against one gene are numbered here. A plus sign joins genes that one reagent is predicted to hit. Not given: the amount of reagent, the time to read-out.

gene	dsRNA no.	infection score, replicate 1	infection score, replicate 2	cell count, replicate 1	cell count, replicate 2
CG42382	1	2.93	16.1	6576	3559
Su(dx) (Suppressor of deltex)	1	3.83	16.5	6000	4786
Su(dx) (Suppressor of deltex)	2	13.5	2.27	3894	6033
Gr39a (Gustatory receptor 39a)	1	0.79	0.5	6217	6423
Gr39a (Gustatory receptor 39a)	2	0.18	0.35	6765	6517
Gr39a (Gustatory receptor 39a)	3	9.45	20.1	6836	6420
CG5071	1	15.4	8.42	6566	2162
CG5071	2	5.44	13.1	6366	5680
CG5071	3	3.34	3.17	6195	6055
CG32815	1		1.31	363	761
CG32815	2	8.03	3.58	6162	6068
CG15452	1	16	13.3	5729	5747
sn (singed)	1	5.38	1.63	6277	6461
sn (singed)	2	13.9	1.26	2672	636
CG5819	1	25.4	23.9	6031	3556
CG5819	2	22.9	8.95	5506	4727
Usp15-31 (Ubiquitin specific protease 15/31)	1	8.27	15.3	6661	5275
Usp15-31 (Ubiquitin specific protease 15/31)	2	3.11	6.68	6144	6152
Bbd (Bombardier)	1	1.49	5.43	6302	6101
CG12384	1	5.21	3.74	5945	7026
CG12384	2	10.8	20.4	5566	4760
Ac78C (Adenylyl cyclase 78C)	1	4.63	0.94	6032	5827
Ac78C (Adenylyl cyclase 78C)	2	4.75	5.53	6228	6422
Ac78C (Adenylyl cyclase 78C)	3	22.6	23.3	6882	5166
kibra	1	14.6	24.1	6177	6080
kibra	2	1.64	6.72	6102	6670
kibra	3	21.9		5869	382
Mul1 (Mitochondrial E3 ubiquitin protein ligase 1)	1	1.08	2.05	6368	6063
Mul1 (Mitochondrial E3 ubiquitin protein ligase 1)	2	3.66	6.17	5706	5912
AGO2 (Argonaute 2)	1	18.4	22.2	6012	4033
CG33159	1	5.6	1.43	6389	6302
CG15611	1	17.4	21.9	6000	3062
CG15611	2	16.7	6.54	5874	6697
CG11584	1	10.3	5.7	6335	6416
CG11584	2	9.71	8.51	4015	1656
CG42507 + Trl	1	2.95	4.32	5427	6464
CG42507 + Trl	2	3.61	2.77	6177	6173
Ercc1	1	9.72	10.3	6182	6406
Ance-3	1	10.6	4.99	5227	6008
Ance-3	2	8.9	1.96	4855	1379
mon2 (monensin sensitivity 2)	1	4.39	5.85	5700	6191
E(z) (Enhancer of zeste)	1	8.7	6.41	6529	6205
E(z) (Enhancer of zeste)	2	15	13.5	2956	4612
stmA (stambha A)	1	7.56	8.6	6282	6291
stmA (stambha A)	2	4.28	3.1	6141	6585
l(2)34Fc (lethal (2) 34Fc)	1		20.6	501	6270
Dip-C (Dipeptidase C)	1	10.6	18.5	3966	5760
rho-4 (rhomboid-4)	1	5.79	13.1	5974	5590
rho-4 (rhomboid-4)	2	2.85	7.08	5716	5762
rush (rush hour)	1	3.47	5.1	5794	5985
CG4712	1	11.5	5.97	5875	6229
bib (big brain)	1	15.9	17.9	6339	6332
bib (big brain)	2	2.22	10.7	6636	6528
DUBAI + Tmem18	1	2.95	0.96	6331	5907
CAH8 (Carbonic anhydrase 8)	1	6.85	3.67	5284	6569
Nup214 (Nucleoporin 214kD)	1	10.1	8.86	5536	5745
CG34462	1	1.88	4.38	6172	6047
CG34462	2	6.48	2.86	6662	6255

Ordered by “cell count, replicate 2” (low to high): 3 of the entries above.
gene	dsRNA no.	infection score, replicate 1	infection score, replicate 2	cell count, replicate 1	cell count, replicate 2
Dip-C (Dipeptidase C)	1	10.6	18.5	3966	5760
l(2)34Fc (lethal (2) 34Fc)	1		20.6	501	6270
stmA (stambha A)	2	4.28	3.1	6141	6585
